pKi: −log10 of the molar value.
biological target: Lethal factor (Bacillus anthracis, UniProt P15917); assay: Inhibition of Bacillus anthracis lethal factor assessed as proteolysis using MCA-KKVYPYPME-Dap(Dnp)-NH2 peptide substrate after 4 hrs by FRET assay

Chains of the proteins cited; added tags and fusions are not shown. Residues count along the entry.
UniProt P15917, 34-809 limits assumed: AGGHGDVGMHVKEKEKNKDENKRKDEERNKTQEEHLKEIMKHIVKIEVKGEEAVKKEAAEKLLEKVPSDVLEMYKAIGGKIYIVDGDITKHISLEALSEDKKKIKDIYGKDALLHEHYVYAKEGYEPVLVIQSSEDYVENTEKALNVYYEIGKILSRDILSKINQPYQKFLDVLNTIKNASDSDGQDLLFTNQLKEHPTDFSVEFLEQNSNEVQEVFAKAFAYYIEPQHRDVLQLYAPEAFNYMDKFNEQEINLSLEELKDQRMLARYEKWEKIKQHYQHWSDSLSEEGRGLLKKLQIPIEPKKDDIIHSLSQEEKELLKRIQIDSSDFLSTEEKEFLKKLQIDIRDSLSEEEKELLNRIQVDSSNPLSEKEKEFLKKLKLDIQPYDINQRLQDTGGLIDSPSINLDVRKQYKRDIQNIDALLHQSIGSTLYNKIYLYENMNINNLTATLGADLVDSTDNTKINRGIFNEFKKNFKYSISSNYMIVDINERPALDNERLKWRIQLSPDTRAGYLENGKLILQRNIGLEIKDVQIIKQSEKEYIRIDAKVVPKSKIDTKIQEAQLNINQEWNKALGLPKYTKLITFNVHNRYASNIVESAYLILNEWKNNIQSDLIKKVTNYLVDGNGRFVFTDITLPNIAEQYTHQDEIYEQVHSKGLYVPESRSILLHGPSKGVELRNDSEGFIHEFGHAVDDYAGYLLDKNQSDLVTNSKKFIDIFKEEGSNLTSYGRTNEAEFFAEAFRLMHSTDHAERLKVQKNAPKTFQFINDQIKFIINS

Compared with `Cc1cc(N[C@H](CCCCNCCCc2ccc(F)cc2)C(=O)NO)cc(C)c1F`, `Cc1cc(N[C@H](CCCCNCc2ccc(Cl)cc2)C(=O)NO)cc(C)c1F` is 0.34 log units higher in pKi: 8.66 for the first, 9.00 for the second. The second binds more tightly here.

`Cc1cc(C[C@H](CCCCNCc2ccc(Cl)cc2)C(=O)NO)ccc1F` and `Cc1cc(C[C@H](CCCCNCc2ccc(F)cc2)C(=O)NO)ccc1F` are within 0.2 log units of each other in pKi: 9.44 for the first, 9.60 for the second.

First: Cc1cc(CNCCCC[C@@H](Cc2ccc(F)c(C)c2)C(=O)NO)ccc1F
Second: Cc1cc(C[C@H](CCCCNCc2ccc(Cl)cc2)C(=O)NO)cc(C)c1F
The pKi of the first is 0.23 log units lower: 8.92 for the first, 9.15 for the second.

`Cc1cc(N[C@H](CCCCNCc2ccc(Cl)cc2)C(=O)NO)ccc1F` and `Cc1cc(N[C@H](CCCCNCc2ccc(F)cc2)C(=O)NO)ccc1F` are within 0.2 log units of each other in pKi: 9.17 for the first, 9.09 for the second.

First: Cc1cc(COCCCC[C@@H](Cc2cc(C)c(F)c(C)c2)C(=O)NO)ccc1F
Second: Cc1cc(CCCCCC[C@@H](Cc2cc(C)c(F)c(C)c2)C(=O)NO)ccc1F
The pKi of the first is 1.36 log units higher: 7.60 for the first, 6.24 for the second. The first binds more tightly here.

Compared with `Cc1cc(CNCCCC[C@@H](Nc2ccc(F)c(C)c2)C(=O)NO)ccc1F`, `Cc1cc(CNCCCC[C@@H](Oc2ccc(F)c(C)c2)C(=O)NO)ccc1F` is 0.69 log units lower in pKi: 9.21 for the first, 8.52 for the second.

`Cc1cc(O[C@H](CCCCCNCc2ccc(F)cc2)C(=O)NO)cc(C)c1F` and `Cc1cc(O[C@H](CCCCCNCCc2ccc(F)cc2)C(=O)NO)cc(C)c1F` are within 0.2 log units of each other in pKi: 8.51 for the first, 8.48 for the second.

Compared with `CO[C@H](C[C@H](CCCCNCCc1ccc(F)cc1)C(=O)NO)c1ccc(F)cc1`, `CO[C@H](C[C@H](CCCCCNCCc1ccc(F)cc1)C(=O)NO)c1ccc(F)cc1` is 0.66 log units lower in pKi: 8.96 for the first, 8.30 for the second.

`Cc1cc(O[C@H](CCCCNCc2ccc(F)cc2)C(=O)NO)ccc1F` and `Cc1cc(O[C@H](CCCCNCc2ccc(Cl)cc2)C(=O)NO)ccc1F` are within 0.2 log units of each other in pKi: 8.96 for the first, 9.12 for the second.

`Cc1cc(O[C@H](CCCCNCc2ccc(Cl)cc2)C(=O)NO)cc(C)c1F` and `Cc1cc(CNCCCC[C@@H](Oc2cc(C)c(F)c(C)c2)C(=O)NO)ccc1F` are within 0.2 log units of each other in pKi: 8.70 for the first, 8.62 for the second.

Compared with `CO[C@H](C[C@H](CCCCNCc1ccc(F)cc1)C(=O)NO)c1ccc(F)c(C)c1`, `CO[C@H](C[C@H](CCCCNCc1ccc(F)c(C)c1)C(=O)NO)c1ccc(F)cc1` is 0.21 log units lower in pKi: 9.03 for the first, 8.82 for the second.

First: Cc1cc(CNCCCC[C@@H](Cc2cc(C)c(F)c(C)c2)C(=O)NO)ccc1F
Second: Cc1cc(C[C@H](CCCCNCCc2ccc(F)cc2)C(=O)NO)cc(C)c1F
The pKi of the first is 1.39 log units higher: 9.41 for the first, 8.02 for the second. The first binds more tightly here.

Compared with `Cc1cc(COCCCC[C@@H](Nc2cc(C)c(F)c(C)c2)C(=O)NO)ccc1F`, `Cc1cc(CCCCCC[C@@H](Nc2cc(C)c(F)c(C)c2)C(=O)NO)ccc1F` is 0.96 log units lower in pKi: 7.52 for the first, 6.56 for the second.

`CO[C@H](C[C@H](CCCCNCc1ccc(F)c(C)c1)C(=O)NO)c1ccc(F)c(C)c1` and `CO[C@H](C[C@H](CCCCNCc1ccc(Cl)cc1)C(=O)NO)c1ccc(F)c(C)c1` are within 0.2 log units of each other in pKi: 8.89 for the first, 8.85 for the second.

First: O=C(NO)[C@@H](CCCCNCc1ccc(F)cc1)Nc1ccc(F)c(Cl)c1
Second: CO[C@H](C[C@H](CCCCNCc1ccc(Cl)cc1)C(=O)NO)c1ccc(F)cc1
The pKi of the first is 0.50 log units lower: 8.42 for the first, 8.92 for the second.

`Cc1cc(O[C@H](CCCCNCCc2ccc(F)cc2)C(=O)NO)cc(C)c1F` and `CO[C@H](C[C@H](CCCCCNCc1ccc(F)cc1)C(=O)NO)c1ccc(F)cc1` are the same in pKi: 8.34 for the first, 8.34 for the second.

Source: ChEMBL document CHEMBL1759992, “Antidotes to anthrax lethal factor intoxication. Part 2: structural modifications leading to improved in vivo efficacy” (Bioorg Med Chem Lett, 2011)
